Pooled drug test results. Numbers come from NIAID ChemDB, via PubChem.

Common to all: tests in culture; agent: HIV-1; cells: MT-2; endpoint: inhibition

Conditions beyond the fields shown may differ between rows. Blank or dashed fields: not listed here. Inhibition is in % at the dose shown (toxicity tests: loss of growth or viability).

structure	strain or isolate	mutations	read by	setting	tested at	result
CC(C)C[C@@H]1[C@H](O)[C@@H](O)[C@@H](CC(C)C)N(Cc2cccc(C(=O)Nc3nc4ccccc4[nH]3)c2)C(=O)N1Cc1cccc(C(=O)Nc2nc3ccccc3[nH]2)c1	RF	PR-I84V V82F		3 d	0.012 µM	90%
CCCCCCCN1C(=O)N(CCCCCCC)[C@H](Cc2ccccc2)[C@H](O)[C@@H](O)[C@H]1Cc1ccccc1	RF		hybridisation		96 µM	<90%
O=c1ccc2cc3ccoc3cc2o1	NL4-3 Recombinant VSV-pseudotyped		luciferase		50 µM	16%
CCOC(=O)c1c(C(C)C)c(C#N)c(=N)n2ccccc12			cytopathic effect		4 µM	90%
O=C1N(Cc2ccc(CO)cc2)[C@H](Cc2ccccc2)[C@H](O)[C@@H](O)[C@@H](Cc2ccccc2)N1Cc1ccc(CO)cc1	IIIB		virus yield		0.11 µM	90%
COc1cc(C[C@@]2(O)C(=O)OC[C@@H]2Cc2ccc(OC)c(OC)c2)ccc1O	IIIB		XTT		0.3 µg/mL	67%
Nc1nc(N)c2ncn([C@H]3CC[C@@H](CO)O3)c2n1	IIIB		cytopathic effect / trypan blue		20 µM	3%
CC(C)CN(C[C@@H](O)[C@H](Cc1ccccc1)NC(=O)[C@@H](NC(=O)CNCc1cccc(F)c1)C(C)(C)C)S(=O)(=O)c1cccc(N)c1	THAI 9466		virus yield		0.011 µM	90%
CC1(C)O[C@@H]1COc1c2occc2cc2ccc(=O)oc12	NL4-3 Recombinant VSV-pseudotyped		luciferase		25 µM	50%
Nc1cccc(CN2C(=O)N(Cc3cccc(N)c3)[C@H](Cc3ccccc3)[C@H](O)[C@@H](O)[C@H]2Cc2ccccc2)c1	Thai (PR L10F M46I D60E I84V)	PR-L10F M46I D60E I84V	virus yield		7.78 µM	90%
O=C1N(c2ccccc2)c2ccccc2C1(CC1=CCN(CC2CC2)CC1)CC1=CCN(CC2CC2)CC1	RF		plaque count		11 µM	13%
CCNc1cccnc1N1CCN(C(=O)c2cc3cc(OC)ccc3[nH]2)CC1	LAV				1 µM	83%
Nc1nc2c(ncn2[C@H]2CC[C@@H](CO)O2)c(=O)[nH]1	IIIB		cytopathic effect / trypan blue		50 µM	40%
Nc1nc2c(ncn2[C@H]2CC[C@@H](CO)O2)c(=O)[nH]1	IIIB		syncytia		10 µM	98%
Cc1cn([C@H]2C[C@H](N=[N+]=[N-])[C@@H](CO)O2)c(=O)[nH]c1=O	IIIB		p24		0.026 µg/mL	70%
O=c1[nH]cnc2c1ncn2[C@H]1CC[C@@H](CO)O1	IIIB		cytopathic effect / trypan blue		10 µM	95%
O=C(c1ccccc1)N1CCC(CC2C(=O)N(c3ccccc3)c3ccccc32)CC1	RF		plaque count		11.3 µM	70%
C=COCCN1C(=O)N(CCOC=C)[C@H](Cc2ccccc2)[C@H](O)[C@@H](O)[C@H]1Cc1ccccc1	RF		hybridisation		107 µM	<90%
Nc1c(S(=O)(=O)O)cc2c3c(cc(S(=O)(=O)O)cc13)C(=O)N(NC(=O)N/N=C/c1cccc(C=O)c1)C2=O			syncytia		200 µM	5%
CN1C(=O)N(C)[C@H](Cc2ccccc2)[C@H](O)[C@@H](O)[C@H]1Cc1ccccc1	RF		hybridisation		141 µM	<90%
CC(C)(C)NC(=O)[C@@H]1C[C@@H]2CCCC[C@@H]2CN1C[C@@H](O)[C@H](Cc1ccccc1)NC(=O)[C@H](CC(N)=O)NC(=O)c1ccc2ccccc2n1	HXB2	PR-L90M	p24		0.0151 µM	90%
Cc1cn([C@H]2C[C@H](N=[N+]=[N-])[C@@H](CO)O2)c(=O)[nH]c1=O	IIIB		cytopathic effect / trypan blue		2 µM	100%
O=C1N(Cc2ccc3ccccc3c2)[C@H](Cc2ccccc2)[C@H](O)[C@@H](O)[C@@H](Cc2ccccc2)N1C1CCCC1	RF		hybridisation		0.66 µM	90%
CN1CCC(CC2(CC3CCN(C)CC3)C(=O)N(c3ccccc3)c3ccccc32)CC1	RF		plaque count		11 µM	73%
COc1cc(C[C@H]2C(=O)OC[C@@H]2Cc2ccc(OC)c(OC)c2)ccc1O	IIIB		XTT		0.3 µg/mL	91%

Repeating the final 2 entries:

structure | strain or isolate | mutations | read by | setting | tested at | result
CN1CCC(CC2(CC3CCN(C)CC3)C(=O)N(c3ccccc3)c3ccccc32)CC1 | RF |  | plaque count |  | 11 µM | 73%
COc1cc(C[C@H]2C(=O)OC[C@@H]2Cc2ccc(OC)c(OC)c2)ccc1O | IIIB |  | XTT |  | 0.3 µg/mL | 91%